Measured data: PubChem BioAssay AID504761 (Drosophila RNAi Screening Center, 2011)
Assay: 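Fly genes whose silencing reduces dengue virus type 2 infection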 (primary screen). Cells: D.Mel-2 cells from Drosophila. Reagent: long dsRNA against Drosophila genes. Challenge: infection with dengue virus type 2; dose and infection time not stated. Measured: 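Cells stained for dengue envelope protein and imaged; percent of infected cells per well on duplicate plates, ranked by infection, with stained nuclei counted for cell number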. Reading the numbers: infection score: higher = more virus-infected cells. Active means: 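Very low infection ranking in both replicate wells (chance probability at most 0.065), then a retest showing infection dropped 1.5-fold or more at p below 0.05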. Calls: active = confirmed: knock-down lowers infection; inactive = not picked or not confirmed.
In all, the deposit lists about 22,000 reagents; this is a random part of those with a known target gene and a result. In the full data, 116 (0.52%) got an active call. 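Calls depend on retest data that are not deposited; infection was ranked per plate without normalising between plates; the unit of the infection score is not given.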 Further read-outs or replicates are left out here. Not given: the amount of reagent, the time to read-out.

CG15765 [DRSC23026]
- infection score, replicate 1: 1.44
- Outcome: inactive

CG15765 [DRSC29271]
- infection score, replicate 1: 13
- Outcome: inactive

glob1 [DRSC16959]
- infection score, replicate 1: 7.61
- Outcome: inactive

Bdbt [DRSC15218]
- infection score, replicate 1: 7.42
- Outcome: inactive

Copied from the entries so far for reference:
CG15765 [DRSC23026]
- infection score, replicate 1: 1.44
- Outcome: inactive

CG15765 [DRSC29271]
- infection score, replicate 1: 13
- Outcome: inactive

Additional entries follow:
CG14070 [DRSC02373]
- infection score, replicate 1: 2.22
- Outcome: inactive

CG44433 [DRSC06517]
- infection score, replicate 1: 3.52
- Outcome: inactive

CG44433 [DRSC06518]
- infection score, replicate 1: 0.57
- Outcome: inactive

CG44433 [DRSC26571]
- infection score, replicate 1: 4.9
- Outcome: inactive

ida [DRSC08163]
- infection score, replicate 1: 2.37
- Outcome: inactive

ex [DRSC00817]
- infection score, replicate 1: 4.29
- Outcome: inactive

ex [DRSC23963]
- infection score, replicate 1: 1.25
- Outcome: inactive

coil [DRSC07242]
- infection score, replicate 1: 2.24
- Outcome: inactive

coil [DRSC26055]
- infection score, replicate 1: 4.57
- Outcome: inactive
